This data set has as its target DgdR (2,2-dialkylglycine decarboxylase repressor, LysR family) (Pseudomonas cepacia) (UniProt P16931). Put plainly: EMSA. The conditions noted are these: protein in a lysate after overexpression.

The exact form of at least one protein or probe is not confirmed. Results from cells or extracts need not show a direct contact.

“GCCGAGGTGCGCGCGCTCAGCGCGGC (double strand)”: for the setting “single shifted band, 1 ug extract, 50 ng DNA, 10 mM Tris pH 7.6, room temp, not affected by 20 mM 2-methylalanine, only the site is given”, the binding result is reported as “binds”.
Consider “GCCGAGGTGCGCGCGCTCAGCGCGGC (double strand) [179 bp SalI fragment of the 367 bp product (contains O2)]”, for which the binding result (single shifted band after SalI digestion, only the site is given) is “binds”.
For the sequence “GCCGAGGTGCGCGCGCTCAGCGCGGC (double strand) [507 bp SalI fragment of the 788 bp product (contains O2)]”, the binding result (single shifted band stated, DNA Binding Assays paragraph says only the 179 bp fragment shifted, only the site is …) was “binds”.
As to “GCCGAGGTGCGCGCGCTCAGCGCGGCCGCGCTGCTGCTCAGCACCGGCGCG (double strand)”, the binding result (only the site is given) is reported as “binds”.

Source of the values: patent US5356796A, “Repressor protein and operon for regulating expression of polypeptides and its use in the preparation of 2,2-dialkyglycine decarboxylase of Pseudomonas cepacia” (priority 1992, dated 1994).
